## Sequence variants of PSTVd loop 6 after infection

Data from the supplement of Wu et al. 2024, doi:10.1371/journal.ppat.1012142.

Region: loop 6 of PSTVd (intermediate strain), upper and lower strand joined, each 5' to 3', the first 5 letters being the upper strand, closing pairs included. Wild type: UGACCGCGAG. Varied positions (N): UNNNCGNNNG.

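A pool of all variants was put on leaves of three Nicotiana benthamiana plants. Samples came from the inoculated region at 5 days, the leaf margin at 10 and upper systemic leaves at 12.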

Numbers give reads per thousand; 0 = not seen among the reads, higher = more abundant.
Each site shows the three plants.
"Pool" is the share in the plasmid pool used as inoculum, on the same scale.
The inoculated region was read from the minus strand, the other sites from the plus strand.
Samples held 36,220 to 57,551 reads, so the smallest values rest on one or two reads.
The authors trace changes outside the varied positions to PCR and sequencing errors or to mutation in the plant; presence does not show that a variant is infectious alone.
For reference, wild type rose from 20.7 per thousand in the pool to 195, 198, 203 (inoculated region), 629, 591, 734 (leaf margin) and 942, 870, 868 (systemic leaves).

sequence,pool,inoculated region,leaf margin,systemic leaves
UCGCCGAUGG,0.418,0.139 / 0.0898 / 0.148,0.0276 / 0.0252 / 0,0 / 0 / 0
UCGCCGAUUG,0.327,0.0869 / 0.108 / 0.0738,0 / 0 / 0,0 / 0 / 0
UCGCCGCAAG,0.235,0.156 / 0.108 / 0.0922,0 / 0 / 0.0232,0 / 0 / 0
UCGCCGCACG,0.248,0.0521 / 0.108 / 0.0738,0 / 0 / 0,0 / 0 / 0
UCGCCGCAGG,0.183,0.139 / 0.0719 / 0.0369,0 / 0 / 0,0 / 0 / 0
UCGCCGCAUG,0.209,0.122 / 0.0539 / 0.0553,0.0552 / 0 / 0.0232,0 / 0 / 0
UCGCCGCCAG,0.235,0.174 / 0.0719 / 0.111,0 / 0 / 0,0 / 0 / 0
UCGCCGCCCG,0.248,0.139 / 0.0898 / 0.0922,0 / 0 / 0,0 / 0 / 0
UCGCCGCCGG,0.248,0.0869 / 0.0898 / 0.129,0 / 0 / 0,0 / 0 / 0
UCGCCGCCUG,0.261,0.139 / 0.108 / 0.0553,0 / 0 / 0,0 / 0 / 0
UCGCCGCGAG,0.209,0.156 / 0.108 / 0.0922,0.166 / 0.101 / 0.0232,0.0719 / 0.0404 / 0.0205
UCGCCGCGAU,0.0131,0.608 / 0.575 / 0.461,0.138 / 0.0757 / 0.162,0 / 0 / 0
UCGCCGCGCG,0.170,0.608 / 0.647 / 0.369,0.0828 / 0.151 / 0.0928,0 / 0 / 0
UCGCCGCGGG,0.209,0.209 / 0.108 / 0.0553,0.0276 / 0 / 0,0 / 0 / 0
UCGCCGCGUG,0.209,0.243 / 0.144 / 0.166,0 / 0.0252 / 0,0 / 0 / 0
UCGCCGCUAG,0.144,0.139 / 0.0180 / 0.111,0 / 0 / 0,0 / 0 / 0
UCGCCGCUCG,0.301,0.139 / 0.126 / 0.111,0.0552 / 0 / 0,0 / 0 / 0
UCGCCGCUGG,0.131,0.174 / 0.0359 / 0.0922,0 / 0 / 0,0 / 0 / 0
UCGCCGCUUG,0.170,0.191 / 0.0898 / 0.0184,0 / 0 / 0,0 / 0 / 0
UCGCCGGAAG,0.157,0.0695 / 0.144 / 0.0369,0 / 0 / 0.0232,0 / 0 / 0
UCGCCGGACG,0.235,0.191 / 0.0180 / 0.0553,0 / 0 / 0.0232,0 / 0 / 0
UCGCCGGAGG,0.235,0.0695 / 0.0539 / 0.0922,0 / 0 / 0,0 / 0 / 0
UCGCCGGAUG,0.288,0.139 / 0.126 / 0.0738,0.0552 / 0 / 0,0 / 0 / 0
UCGCCGGCAG,0.183,0.0348 / 0.0359 / 0,0 / 0 / 0,0 / 0 / 0
UCGCCGGCCG,0.196,0.156 / 0.126 / 0.0369,0 / 0 / 0,0 / 0 / 0
UCGCCGGCGG,0.183,0.104 / 0.0898 / 0.148,0 / 0 / 0,0 / 0.0202 / 0
UCGCCGGCUG,0.431,0.0869 / 0.108 / 0.111,0 / 0 / 0,0 / 0 / 0
UCGCCGGGAG,0.196,0.191 / 0.108 / 0.0369,0 / 0 / 0,0 / 0 / 0
UCGCCGGGCG,0.157,0.139 / 0.0539 / 0.0184,0 / 0 / 0,0 / 0 / 0
UCGCCGGGGG,0.105,0.156 / 0.0719 / 0.0369,0.0276 / 0 / 0,0 / 0 / 0
UCGCCGGGUG,0.261,0.0869 / 0.0180 / 0.0922,0.0276 / 0.0252 / 0.0232,0 / 0 / 0
UCGCCGGUAG,0.183,0.209 / 0.108 / 0.0553,0 / 0 / 0,0 / 0 / 0
UCGCCGGUCG,0.288,0.0521 / 0.0180 / 0.0738,0 / 0 / 0,0 / 0 / 0
UCGCCGGUGG,0.248,0.122 / 0.0719 / 0.129,0 / 0 / 0,0 / 0 / 0
UCGCCGGUUG,0.144,0.0348 / 0.108 / 0.0553,0 / 0 / 0,0 / 0 / 0
UCGCCGUAAG,0.0915,0.139 / 0.126 / 0,0 / 0 / 0.0232,0 / 0 / 0
UCGCCGUACG,0.340,0.0521 / 0.0359 / 0.0553,0 / 0 / 0.0464,0 / 0 / 0
UCGCCGUAGG,0.144,0.174 / 0.108 / 0,0 / 0 / 0.0696,0 / 0 / 0